Results published in a compilation of properties of binary mixtures (doi:10.1021/acs.jpcc.7b06523).

Assay: xn = mol fraction of the nth substance listed
Conditions: 101 kPa

CCC[N+]1(C)CCCC1.O=S(=O)(F)[N-]S(=O)(=O)F + O=S(=O)(F)[N-]S(=O)(=O)F.[K+]
Conditions	electrical conductivity [S/m]	mass density [kg/m3]	viscosity [mPa·s]
328 K, x2 = 0.1	–	–	22.6
328 K, x2 = 0.15	1.33	1373	25.4
328 K, x2 = 0.2	1.18	1394.8	28.9
328 K, x2 = 0.25	1.04	1418.2	33.6
333 K, x2 = 0.05	1.76	1329.6	17.5
333 K, x2 = 0.1	1.64	1348.5	19.8
333 K, x2 = 0.15	1.5	1368.9	22.2
333 K, x2 = 0.25	1.18	1414	29.3
338 K, x2 = 0	2.12	1307.6	14.2
338 K, x2 = 0.05	1.94	1325.6	15.6
338 K, x2 = 0.1	1.82	1344.5	17.5
338 K, x2 = 0.15	1.67	1364.9	19.6
338 K, x2 = 0.2	1.5	1386.6	22
338 K, x2 = 0.25	1.33	1409.8	25.4
343 K, x2 = 0	2.32	1303.8	12.8
343 K, x2 = 0.05	2.13	1321.7	14
343 K, x2 = 0.1	2.01	1340.6	15.6
343 K, x2 = 0.15	1.85	1360.9	17.3
343 K, x2 = 0.2	1.67	1382.5	19.4
348 K, x2 = 0	2.53	1300	11.5
348 K, x2 = 0.05	2.34	1317.8	12.6
348 K, x2 = 0.1	2.21	1336.6	14
348 K, x2 = 0.15	2.04	1356.9	15.5
348 K, x2 = 0.2	1.85	1378.4	17.2
348 K, x2 = 0.25	1.66	1401.6	19.8
353 K, x2 = 0	2.75	1296.2	10.5
353 K, x2 = 0.05	2.55	1313.9	11.4
353 K, x2 = 0.15	2.24	1352.9	13.9
353 K, x2 = 0.2	2.04	1374.4	15.4
358 K, x2 = 0	2.98	1292.4	9.6
358 K, x2 = 0.1	2.64	1328.8	11.5
358 K, x2 = 0.2	2.24	1370.3	13.8
358 K, x2 = 0.25	2.05	1393.4	15.6
363 K, x2 = 0	3.22	1288.7	8.8
363 K, x2 = 0.05	3.01	1306.3	9.4
363 K, x2 = 0.1	2.87	1325	10.4
363 K, x2 = 0.15	2.68	1345	11.3
363 K, x2 = 0.2	2.46	1366.4	12.5
363 K, x2 = 0.25	2.24	1389.3	14.1
368 K, x2 = 0	3.47	–	8.1
368 K, x2 = 0.05	3.25	–	8.7
368 K, x2 = 0.1	3.1	–	9.6
368 K, x2 = 0.2	2.67	–	11.4
368 K, x2 = 0.25	2.42	–	12.8
373 K, x2 = 0	3.74	–	7.6
373 K, x2 = 0.05	3.5	–	8
373 K, x2 = 0.1	3.34	–	8.8
373 K, x2 = 0.15	3.14	–	9.5
373 K, x2 = 0.2	2.9	–	10.4
373 K, x2 = 0.25	2.61	–	11.5
378 K, x2 = 0	4.01	–	7
378 K, x2 = 0.15	3.38	–	8.8
378 K, x2 = 0.2	3.14	–	9.5
378 K, x2 = 0.25	2.87	–	10.5
383 K, x2 = 0	4.3	–	6.5
383 K, x2 = 0.05	4.05	–	6.9
383 K, x2 = 0.1	3.88	–	7.4
383 K, x2 = 0.15	3.63	–	8.1
383 K, x2 = 0.2	3.38	–	8.7
388 K, x2 = 0	4.61	–	6.1
388 K, x2 = 0.05	4.35	–	6.4
388 K, x2 = 0.1	4.15	–	6.9
388 K, x2 = 0.15	3.88	–	7.5
388 K, x2 = 0.2	3.63	–	8
393 K, x2 = 0	4.95	–	5.7
393 K, x2 = 0.05	4.67	–	6
393 K, x2 = 0.1	4.43	–	6.5
393 K, x2 = 0.15	4.14	–	6.9
393 K, x2 = 0.2	3.88	–	7.4
393 K, x2 = 0.25	3.59	–	8.2
